The test system of one series is G. mellonella larvae. As to the kind of experiment: G. mellonella burn model, toxicity in burnt uninfected larvae. Format: in vivo, Galleria mellonella. Particulars: 12.5 mg/kg topical on burn, 96 h, 37 °C, n = 30. As to the method:
Standardized G. mellonella larvae were obtained from the FABI Biocontrol center at the University of Pretoria. The larvae were at the life cycle stage not requiring feeding. Prior to use, larvae were sorted into Petri dishes (10 larvae per plate) lined with Whatman filter paper (Fisher, UK) and stored at 28 °C until use. A burn was induced with a heated nail head to achieve a burn wound area of approximately 2 mm^2. Immediately after burn, the wound was inoculated with a single colony of A. baumannii NICD 15283 applied directly to the burn site with an inoculation loop. Peptides were prepared in PBS to final concentrations of 12.5 mg/kg and 15 mg/kg based on the average weight of the group of larvae treated. The peptides were applied topically 1 h after infection by applying a 5 μL drop directly to the burned area. Untreated controls received 5 μL of PBS or polymyxin B (10 mg/kg) instead. Larvae were left at 37 °C and survival was monitored over 96 h. Mortality was recorded as complete melanization of the larval body and complete loss of motility. Three independent experiments were conducted on three different occasions using 10 larvae per treatment/control group (n = 30).

In a further series the test system is HaCat cell. As to conditions: from HaCat IC50 values ref 14; cited from earlier work. As to the method: Previously, we amidated the C-terminus of A3 to improve its activity against Gram-negative bacteria.[14] A3, the amidated analogue A3a, and the parent peptide AamAP1 were evaluated for antibacterial activity against a panel of ESKAPE pathogens.

For `CC[C@H](C)[C@H](NC(=O)[C@H](C)NC(=O)[C@H](CCCCN)NC(=O)[C@H](CCCNC(=N)N)NC(=O)[C@@H](NC(=O)[C@H](CC(C)C)NC(=O)[C@H](CO)NC(=O)[C@H](Cc1ccccc1)NC(=O)[C@H](CC(C)C)NC(=O)[C@@H](N)Cc1ccccc1)[C@@H](C)CC)C(=O)NCC(=O)NCC(=O)N[C@@H](CC(C)C)C(=O)N[C@@H](Cc1c[nH]c2ccccc12)C(=O)N[C@@H](CO)C(=O)N[C@@H](C)C(=O)N[C@@H](Cc1ccccc1)C(=O)N[C@@H](CCCCN)C(N)=O` [A3a[I14W]], in the series on G. mellonella larvae, the “survival of burnt but uninfected larvae” value stood at 46.7%. Regarding `CC[C@H](C)[C@H](NC(=O)[C@H](C)NC(=O)[C@H](CCCCN)NC(=O)[C@H](CCCCN)NC(=O)[C@@H](NC(=O)[C@H](CC(C)C)NC(=O)[C@H](CO)NC(=O)[C@H](Cc1ccccc1)NC(=O)[C@H](CC(C)C)NC(=O)[C@@H](N)Cc1ccccc1)[C@@H](C)CC)C(=O)NCC(=O)NCC(=O)N[C@@H](CC(C)C)C(=O)N[C@H](C(=O)N[C@@H](CO)C(=O)N[C@@H](C)C(=O)N[C@@H](Cc1ccccc1)C(=O)N[C@@H](CCCCN)C(N)=O)[C@@H](C)CC` [A3a[R7K]], the “survival of burnt but uninfected larvae” value in the series with G. mellonella larvae is 56.7%. Take `CC[C@H](C)[C@H](NC(=O)[C@H](C)NC(=O)[C@H](CCCCN)NC(=O)[C@H](CCCNC(=N)N)NC(=O)[C@@H](NC(=O)[C@H](CC(C)C)NC(=O)[C@H](CO)NC(=O)[C@H](Cc1ccccc1)NC(=O)[C@H](CC(C)C)NC(=O)[C@@H](N)Cc1ccccc1)[C@@H](C)CC)C(=O)NCC(=O)NCC(=O)N[C@@H](CC(C)C)C(=O)N[C@H](C(=O)N[C@@H](CO)C(=O)N[C@@H](C)C(=O)N[C@@H](Cc1ccccc1)C(=O)N[C@@H](CCCCN)C(N)=O)[C@@H](C)CC` [A3a]: the “survival of burnt but uninfected larvae” value in the series on G. mellonella larvae amounted to 80%. Also, the “decrease in cytotoxicity compared with A3” value in the series with HaCat cell is above 2 fold.

These data come from paper PMC11822712, “Improving the Activity and Selectivity of a Scorpion-Derived Peptide, A3a, against Acinetobacter baumannii through Rational Design” (ACS Omega, 2025).
